Compound potency records, mixed from different reports. Data source: NIAID ChemDB in PubChem.

Shared fields: cytotoxicity tests; cells: H9; endpoint: CC50

An empty or dashed field is not shown. Rows are shuffled and stem from different studies. CCn: concentration that lowers growth or viability of the cells by n%.

structure | read by | value
O=S(=O)(Nc1ccccc1)c1ccc(F)cc1F | ATP | >20 µM
[N-]=[N+]=NCCOCCOCCOc1cc(C2(C(F)(F)F)N=N2)ccc1C(=O)NCCOCCOCCNC(=O)c1cc(C(=O)c2ccc3ccccc3c2)n2ccc(C(=O)c3ccccc3)cc12 | MTT | 168.5 µM
CC1(C)CC[C@]2(CNC(=O)CC3(CC(=O)O)CCCC3)CC[C@]3(C)C(=CC[C@@H]4[C@@]5(C)CC[C@H](OC(=O)CC6(CC(=O)O)CCCC6)C(C)(C)[C@@H]5CC[C@]43C)[C@@H]2C1 | cell count | 19.5 µg/mL
NCCOCCOCCNC(=O)c1cc(C(=O)c2ccc3ccccc3c2)n2ccc(C(=O)c3ccccc3)cc12 | MTT | 13.6 µM
CC(=O)OCc1cc2ccc3c(c2oc1=O)[C@@H](OC(=O)[C@@]12CC[C@@](C)(C(=O)O1)C2(C)C)[C@@H](OC(=O)[C@@]12CC[C@@](C)(C(=O)O1)C2(C)C)C(C)(C)O3 | - | 3.34 µM
CCOC(=O)c1cc(C(=O)c2ccco2)n2ccc(C(=O)NCc3ccccn3)cc12 | MTT | 89.7 µM
CC1(C)CC[C@]2(C(=O)O)CC[C@]3(C)C(=CCC4[C@@]5(C)CC[C@H](OC(=O)CCCC(=O)O)C(C)(C)C5CC[C@]43C)C2C1 | cell count | 14.6 µg/mL
C=C(C)[C@@H]1CC[C@]2(CO)CC[C@]3(C)[C@H](CC[C@@H]4[C@@]5(C)CC[C@@H](O)C(C)(C)[C@@H]5CC[C@]43C)[C@@H]12 | - | 12.3 µM
O=S(=O)(Nc1cccc2ccccc12)c1ccc(F)cc1F | ATP | 7.1 µM
COc1cc2ccc3c(c2oc1=O)[C@@H](OC(=O)C12CCC(C)(C(=O)O1)C2(C)C)[C@@H](OC(=O)C12CCC(C)(C(=O)O1)C2(C)C)C(C)(C)O3 | - | >153 µM
O=C(O)CCNC(=O)CNC(=O)CNC(=O)CNC(=O)c1cc(C(=O)c2ccc3ccccc3c2)n2ccc(C(=O)c3ccccc3)cc12 | MTT | 137.4 µM
CCOC(=O)c1cc(C(=O)NCc2cccnc2)n2ccc(C(=O)c3ccco3)cc12 | MTT | 233.5 µM
COc1cc2ccc(=O)oc2c2c1OC(C)(C)[C@H](OC(=O)C13CCC(C)(C(=O)O1)C3(C)C)[C@@H]2OC(=O)C12CCC(C)(C(=O)O1)C2(C)C | - | >153 µM
C=C(C)[C@@H]1CC[C@]2(C(=O)O)CC[C@]3(C)[C@H](CC[C@@H]4[C@@]5(C)CC[C@H](OC(=O)C(C)(C)CC(=O)O)C(C)(C)[C@@H]5CC[C@]43C)[C@@H]12 | - | 15.9 µM
O=c1[nH]c(=S)ccn1[C@@H]1O[C@H](COP(=O)(O)O)[C@@H](O)[C@H]1O | XTT | >200 µM
CC(CC(=O)O)CC(=O)O[C@H]1CC[C@@]2(C)C(CC[C@]3(C)C2CC=C2C4CC(C)(C)CC[C@]4(C(=O)O)CC[C@]23C)C1(C)C | cell count | 27.5 µg/mL
CCOC(=O)c1cc(C(=O)c2ccc([N+](=O)[O-])cc2)n2ccc(C(=O)NCc3ccccn3)cc12 | MTT | 99.4 µM
COc1ccc(C(=O)Oc2cc(OC)c(OC)c(OC)c2)cc1NC(=O)C(C)Br | MTT | 3.638 µM
C=C(C)[C@@H]1CC[C@]2(CNC(=O)CC(C)(C)CC(=O)O)CC[C@]3(C)[C@H](CC[C@@H]4[C@@]5(C)CC[C@H](NC(=O)CC(C)(C)CC(=O)O)C(C)(C)[C@@H]5CC[C@]43C)[C@@H]12 | - | 20.6 µM
CC(=O)OC[C@]12[C@H](OC(C)=O)[C@H](OC(C)=O)[C@@H]3[C@@H](OC(=O)c4ccccc4)[C@@]14O[C@@]3(C)COC(=O)c1cccnc1[C@@H](C)[C@H](C)C(=O)O[C@@H]([C@H](OC(C)=O)[C@@H]2OC(C)=O)C4(C)O | - | 56.8 µg/mL
OCc1cc(OCc2ccccc2)c(OCc2ccccc2)c(OCc2ccccc2)c1-c1c(CO)cc(OCc2ccccc2)c(OCc2ccccc2)c1OCc1ccccc1 | - | >120 µM
CC1(C)CC[C@]2(C(=O)O)CC[C@]3(C)[C@H](CC[C@@H]4[C@@]5(C)CC[C@H](OC(=O)CC6(CC(=O)O)CCCC6)C(C)(C)[C@@H]5CC[C@]43C)[C@@H]2C1 | cell count | 10.1 µg/mL
COC(=O)CNC(=O)CNC(=O)CNC(=O)CNC(=O)c1cc(C(=O)c2ccc3ccccc3c2)n2ccc(C(=O)c3ccccc3)cc12 | MTT | 137.4 µM
CC(C)[C@@H]1CC[C@]2(C(=O)O)CC[C@]3(C)[C@H](CC[C@@H]4[C@@]5(C)CC[C@H](OC(=O)C(C)(C)CC(=O)O)C(C)(C)[C@@H]5CC[C@]43C)[C@@H]12 | - | 7.7 µM
Nc1ccn([C@H]2CS[C@@H](CO)O2)c(=O)n1 | - | 17 µM
O=C(O)C[C@H]1C(=O)O[C@H]2[C@H](OC(=O)c3cc(O)c(O)c(O)c3)[C@@H](OC(=O)c3cc(O)c(O)c4c3[C@H]1[C@H](O)C(=O)O4)[C@H](OC(=O)c1cc(O)c(O)c(O)c1)O[C@@H]2COC(=O)c1cc(O)c(O)c(O)c1 | - | >20 µg/mL
N#Cc1cccc(S(=O)(=O)N(Cc2c(Cl)cccc2Cl)c2cccc(C(=O)NC3CCC3)c2)c1 | absorbance | >33 µM
CC(C)(CC(=O)O)CC(=O)O[C@H]1CC[C@@]2(C)C(CC[C@]3(C)C2CC=C2C4CC(C)(C)CC[C@]4(C(=O)O)CC[C@]23C)C1(C)C | cell count | 14.2 µg/mL
CCOC(=O)c1cc(C(=O)c2ccc(C(F)(F)F)cc2)n2ccc(C(=O)NCc3ccccn3)cc12 | MTT | 349.9 µM
CCOC(=O)c1cc(C(=O)c2ccc3ccccc3c2)n2ccc(C(=O)NCc3ccccn3)cc12 | MTT | 123.9 µM
C=C(C)[C@@H]1CC[C@]2(COC(C)=O)CC[C@]3(C)[C@H](CC[C@@H]4[C@@]5(C)CC[C@H](OC(C)=O)C(C)(C)[C@@H]5CC[C@]43C)[C@@H]12 | - | >189.8 µM
CCOC(=O)c1cc(C(=O)c2ccccc2)n2ccc(C(=O)N[C@H](C)c3ccccc3)cc12 | MTT | 216 µM
C[C@@]12CCC[C@@](C)(C(=O)O)[C@H]1CC[C@@]13C[C@@H](CC[C@H]12)[C@](O)(CO)C3 | - | >4 µg/mL
Nc1ncnc2c1ncn2[C@@H]1O[C@H](COC2(c3ccccc3)c3ccccc3Oc3ccccc32)[C@@H](OC2(c3ccccc3)c3ccccc3Oc3ccccc32)[C@H]1OC1CCCCO1 | - | >100 µM
O=C1O[C@@H]2[C@@H](OC(=O)c3cc(O)c(O)c(O)c3-c3c1cc(O)c(O)c3O)[C@@H](O)O[C@@H]1COC(=O)c3cc(O)c(O)c(O)c3-c3c(O)c(O)c4oc(=O)c5c(c(O)c(O)c6oc(=O)c3c4c65)-c3c(cc(O)c(O)c3O)C(=O)O[C@@H]21 | - | >20 µg/mL
NCCOCCOCCNC(=O)c1cc(C(=O)c2ccc3ccccc3c2)n2ccc(C(=O)c3ccccc3)cc12 | MTT | 13.6 µM
COC(=O)c1cc(OC)c(OC)c(OC)c1-c1c(C(=O)OC)cc(OC)c(OC)c1OC | - | >200 µM
[N-]=[N+]=NCCOCCOCCOc1cc(C2(C(F)(F)F)N=N2)ccc1C(=O)NCCOCCOCCNC(=O)c1cc(C(=O)c2ccc3ccccc3c2)n2ccc(C(=O)c3ccccc3)cc12 | MTT | 168.5 µM
CCOC(=O)c1cc(C(=O)c2ccc3ccccc3c2)n2ccc(C(=O)c3ccccc3)cc12 | MTT | 167.4 µM
O=C1OCC2OC(O)C(O)C(O)C2OC(=O)c2cc(O)c(O)c(O)c2-c2c(O)c(O)c3oc(=O)c4c(c(O)c(O)c5oc(=O)c2c3c54)-c2c1cc(O)c(O)c2O | - | >20 µg/mL
CCCCCCCCCCCCCCCCCCCCCCOCC(C)(COCCCCCCCCCCCCCCCCCCCCCC)CO[C@]1(C(=O)O)C[C@H](OS(=O)(=O)O)[C@@H](NC(C)=O)[C@H]([C@H](OS(=O)(=O)O)[C@@H](COS(=O)(=O)O)OS(=O)(=O)O)O1 | - | >100 µg/mL
O=S(=O)(Nc1cccc2cccnc12)c1ccccc1F | ATP | >20 µM
CC1=CCC[C@H]2[C@](C)(CC3=CC(=O)C=CC3=O)[C@@H](C)CC[C@]12C | - | >1 µg/mL
CCOC(=O)c1cc(C(=O)c2ccc3ccccc3c2)n2ccc(C(=O)c3ccccc3)cc12 | MTT | 167.4 µM
CC1(C)Oc2ccc3cc(CO)c(=O)oc3c2[C@@H](OC(=O)C23CCC(C)(C(=O)O2)C3(C)C)[C@H]1OC(=O)C12CCC(C)(C(=O)O1)C2(C)C | - | 35.35 µM
COP(=O)(c1cc(C)cc(CCC#N)c1)c1c(C(N)=O)[nH]c2ccc(Cl)cc12 | MTS | 31.3 µM
CCOC(=O)c1cc(C(=O)c2ccc(O)cc2)n2ccc(C(=O)NCc3ccccn3)cc12 | MTT | 150 µM
COc1cc(CBr)c(-c2c(CBr)cc(OC)c(OC)c2OC)c(OC)c1OC | - | 150 µM
CCOC(=O)c1cc(C(=O)c2ccc3c(c2)OCO3)n2ccc(C(=O)NCc3ccccn3)cc12 | MTT | 89.1 µM
CC1=C(/C=C/C(C)=C/C=C/C(C)=C/C(=O)O)C(C)(C)CCC1 | MTT | >1 µM
CCOC(=O)c1cc(C(=O)c2ccc3c(c2)OCO3)n2ccc(C(=O)NCc3ccccn3)cc12 | MTT | 139.2 µM
O=C(/C=C/c1ccccc1)c1ccccn1 | cell count | 0.21 µg/mL
CC(=O)OC[C@]12[C@H](OC(C)=O)[C@H](OC(C)=O)[C@@H]3[C@@H](OC(C)=O)[C@@]14O[C@@]3(C)COC(=O)c1cnccc1[C@@H](C)[C@@](C)(O)C(=O)O[C@@H]([C@H](OC(=O)c1ccoc1)[C@@H]2OC(C)=O)C4(C)O | - | >100 µg/mL
O=S(=O)(Nc1cccc2cccnc12)c1ccc(C(F)(F)F)cc1 | ATP | 5.1 µM
COc1cc(C2(C(F)(F)F)N=N2)ccc1C(=O)NCCOCCOCCNC(=O)c1cc(C(=O)c2ccc3ccccc3c2)n2ccc(C(=O)c3ccccc3)cc12 | MTT | 174.6 µM
COc1c(OCc2ccccc2)c(OCc2ccccc2)cc(C=O)c1-c1c(C=O)cc(OCc2ccccc2)c(OCc2ccccc2)c1OC | - | 4 µM
O=C(O)C[C@@H]1C(=O)O[C@H]2[C@@H]3OC(=O)c4cc(O)c(O)c(O)c4-c4c(cc(O)c(O)c4O)C(=O)OC[C@H]2O[C@@H](OC(=O)c2cc(O)c(O)c(O)c2)[C@@H]3OC(=O)c2cc(O)c(O)c3c2[C@H]1[C@H](O)C(=O)O3 | - | >20 µg/mL
O=S(=O)(Nc1cccc2cccnc12)c1ccc(Cl)cc1 | ATP | >20 µM
CCOC(=O)c1cc(C(=O)c2ccc(Cl)cc2)n2ccc(C(=O)NCc3ccccn3)cc12 | MTT | 142.2 µM
Nc1ncnc2c1ncn2[C@@H]1O[C@H](CO)C[C@H]1N1CCOCC1 | - | >40 µM
C=C(C)[C@@H]1CC[C@]2(CO)CC[C@]3(C)[C@H](CC[C@@H]4[C@@]5(C)CC=CC(C)(C)[C@@H]5CC[C@]43C)[C@@H]12 | - | 28.3 µM
C[C@@H]1CCO[C@H]2Cn3cc(C(=O)NCc4ccc(F)cc4F)c(=O)c(O)c3C(=O)N12 | luminescence | 1.302 µM
Cc1cn([C@H]2C[C@H](N=[N+]=[N-])[C@@H](CO)O2)c(=O)[nH]c1=O | - | 500 µg/mL
CCOC(=O)c1cc(C(=O)c2ccccc2)n2ccc(C(=O)NCc3cccnc3)cc12 | MTT | 114.1 µM

The first 4 rows once more:

structure	read by	value
O=S(=O)(Nc1ccccc1)c1ccc(F)cc1F	ATP	>20 µM
[N-]=[N+]=NCCOCCOCCOc1cc(C2(C(F)(F)F)N=N2)ccc1C(=O)NCCOCCOCCNC(=O)c1cc(C(=O)c2ccc3ccccc3c2)n2ccc(C(=O)c3ccccc3)cc12	MTT	168.5 µM
CC1(C)CC[C@]2(CNC(=O)CC3(CC(=O)O)CCCC3)CC[C@]3(C)C(=CC[C@@H]4[C@@]5(C)CC[C@H](OC(=O)CC6(CC(=O)O)CCCC6)C(C)(C)[C@@H]5CC[C@]43C)[C@@H]2C1	cell count	19.5 µg/mL
NCCOCCOCCNC(=O)c1cc(C(=O)c2ccc3ccccc3c2)n2ccc(C(=O)c3ccccc3)cc12	MTT	13.6 µM